Holding throughout (experiment): biochemical
Assay [1] has as its target HLA-DQ DQA1*05:01/DQB1*02:01 (Homo sapiens, UniProt P01909+P01920, A45G/A70V/D89A/E106A/E77G/E98D/H199R/L107V/N214S/P84L/P87L/T103K/T109R/T172A/T60S/V78E/V99I/Y58L/Y62S/Y69I/Y79F).
Assay [2] has as its target HLA-DQ DQA1*01:02/DQB1*06:02 (Homo sapiens, UniProt P01909+P01920, A157G/A45G/C70R/E118A/E183D/E77G/F83G/G63E/H151Q/H199R/H252R/H253Q/I129T/I235V/I88M/INS77G/K197Q/L117V/L119F/L178F/L71W/L74F/L85Q/L91A/L98M/N214S/P87R/Q116E/Q76K/R102G/R240Q/R75S/R78G/S102Y/S185I/S41F/S97I/T121G/T122I/T172A/T86R/V229M/V68A/V73E/Y34C/Y41F/Y58L). In kind it is binding. As to conditions: read-out: Binding capacity/IC50 (nM) DQA1*01:02 DQB1*06:02.

Protein sequences, listed by entry. Tags and fused reporters are not part of them. Lines headed by an entry give the natural chain unless they say otherwise; changes in a name come on top. Residues count along the entry.
UniProt P01903, 26-254 limits assumed: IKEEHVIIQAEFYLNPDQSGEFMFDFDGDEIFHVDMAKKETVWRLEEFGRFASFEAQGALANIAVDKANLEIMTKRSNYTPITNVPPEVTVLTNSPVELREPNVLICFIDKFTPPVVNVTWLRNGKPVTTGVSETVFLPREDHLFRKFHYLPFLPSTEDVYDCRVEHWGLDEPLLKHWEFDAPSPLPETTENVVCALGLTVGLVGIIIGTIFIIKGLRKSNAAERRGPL

The target of a further assay is HLA-DR DRB1*03:01 (Homo sapiens, UniProt P01903+P01911, A100K/A102G/A103R/A169T/F55Y/I96L/K41T/L162R/M171V/P40S/Q125H/Q178H/Q39Y/R42S/S66N/T106N/T262R/W38E/Y61H). In kind it is binding. As to conditions: read-out: Binding capacity/IC50 (nM) DRB1*03:01.
The target of assay [3] is HLA-DQ DQA1*02:01/DQB1*02:02 (Homo sapiens, UniProt P01909+P01920, A45G/A70V/C70K/D167G/D89A/E106A/E183D/E77G/E98D/F237L/F77L/G63E/H199R/I129T/K197E/L107V/L178F/L74F/N214S/P84L/P87L/Q57E/Q76R/R75H/S185I/S97I/T103K/T109R/T172A/T60S/V73L/V78E/V99I/Y48F/Y58L/Y62S/Y69I/Y79F). In kind it is binding.
In assay [4] the target is HLA-DQ DQA1*01:01/DQB1*05:01 (Homo sapiens, UniProt P01909+P01920, A157S/A45G/A70V/C70R/D89V/E106S/E118A/E183D/E77G/F83G/G63E/H151Q/H199R/H252R/H253Q/I129T/I235V/I88M/INS77G/K197Q/L107V/L117V/L119Y/L178F/L71W/L74F/L85Q/L91A/L98M/M46L/N214S/P87R/Q116E/Q256R/Q57E/Q76K/R102G/R240Q/R75S/R78G/S102Y/S185I/S41F/S97I/T103A/T109R/T121G/T122I/T172A/T86R/V148I/V68A/V73E/Y34C/Y58G/Y62H).

In assay [5] the target is HLA-DQ DQA1*01:04/DQB1*05:03 (Homo sapiens, UniProt P01909+P01920, A157S/A221T/A45G/A70V/C70R/D25G/E106S/E118A/E183D/E77G/F83G/G63E/H151Q/H199R/H252R/H253Q/I129T/I235V/I88M/INS77G/K197Q/L107V/L117V/L119Y/L178F/L71W/L74F/L85Q/L91A/L98M/M46L/N214S/P87R/Q116E/Q256R/Q57E/Q76K/R102G/R240Q/R75S/R78G/S102Y/S185I/S41F/S97I/T103A/T109R/T121G/T122I/T172A/T86R/V148I/V68A/V73E/Y34C/Y58G/Y62H).

Assay [6] has as its target HLA-DQ DQA1*04:01/DQB1*04:02 (Homo sapiens, UniProt P01909+P01920, A45G/E106S/E183D/E77G/E98D/H199R/I129T/K197E/L107V/L178F/L91T/P87R/P88L/R102E/S185I/S97I/T103D/T217I/V99I/Y41F/Y58G).
For assay [7], the target named is HLA-DQ DQA1*03:01/DQB1*03:02 (Homo sapiens, UniProt P01909+P01920, A209T/A45G/C70Q/D89A/DUP78-78/E183D/E77G/F237L/G63E/H199R/I129T/K197E/L178F/L74F/L98V/Q57E/Q76R/S185I/S97I/T217I/T49S/V73L/Y58L). Format: binding. The following applies: read-out: Binding capacity/IC50 (nM) DQA1*03:01 DQB1*03:02.
Assay [8] has as its target HLA-DQ DQA1*01:02/DQB1*05:02 (Homo sapiens, UniProt P01909+P01920, A157S/A45G/A70V/C70R/D89S/E106S/E118A/E183D/E77G/F83G/G63E/H151Q/H199R/H252R/H253Q/I129T/I235V/I88M/INS77G/K197Q/L107V/L117V/L119Y/L178F/L71W/L74F/L85Q/L91A/L98M/M46L/N214S/P87R/Q116E/Q158H/Q256R/Q76K/R102G/R240Q/R75S/R78G/S102Y/S185I/S41F/S97I/T103A/T109R/T121G/T122I/T172A/T86R/V148I/V229M/V68A/V73E/Y34C/Y58G/Y62H).

Assay [9] addresses HLA-DQ DQA1*01:03/DQB1*06:03 (Homo sapiens, UniProt P01909+P01920, A157G/A45G/C70R/E118A/E183D/E77G/F83G/G63E/H199R/H252R/H253Q/I129T/I235V/I88M/INS77G/K197Q/L117V/L119F/L178F/L71W/L74F/L85Q/L91A/L98M/N214S/P87R/Q116E/Q76K/R102G/R240Q/R64K/R75S/R78G/S102Y/S152A/S185I/S41F/S97I/T121G/T122I/T172A/T86R/V68A/V73E/Y34C/Y48F/Y58L/Y62H).
Assay [10] has as its target HLA-DQ DQA1*03:01/DQB1*03:01 (Homo sapiens, UniProt P01909+P01920, A209T/C70Q/DUP78-78/E183D/F237L/G63E/I129T/K197E/L178F/L74F/L98V/Q57E/Q76R/S185I/S97I/T49S/V73L). Format: binding. The following applies: read-out: Binding capacity/IC50 (nM) DQA1*03:01 DQB1*03:01.
[11] abbreviates: read-out: Binding capacity/IC50 (nM) DQA1*02:01 DQB1*02:02.

SMILES strings stand for the structures. Like-named read-outs stand apart in the source and are kept apart here. Some results are limits rather than exact numbers.

With `CC[C@H](C)[C@H](NC(=O)[C@@H]1CCCN1C(=O)[C@H](CCC(=O)O)NC(=O)[C@@H](N)CCCCN)C(=O)N[C@H](C(=O)NCC(=O)N[C@@H](C)C(=O)N[C@@H](CCC(=O)O)C(=O)N[C@H](C(=O)N[C@@H](Cc1ccccc1)C(=O)N[C@@H](Cc1ccc(O)cc1)C(=O)N[C@H](C(=O)N[C@@H](CC(=O)O)C(=O)NCC(=O)N[C@@H](C)C(N)=O)C(C)C)[C@@H](C)O)C(C)C` [RT(431-445)], the IC50 stood at 0.107 µM in assay [1]; 968 nM in assay [2]; 107 nM at HLA-DR DRB1*03:01; 595 nM in [3] (setting [11]); 1.15 µM in [4]; 0.624 µM in assay [5]. Moreover, the IC50 in [6] came out at 0.328 µM; in assay [7], 1580 nM; in assay [8], 4.62 µM; in [9], 0.301 µM; in assay [10], 54 nM.
As for `CC[C@H](C)[C@H](NC(=O)[C@H](CC(C)C)NC(=O)[C@H](C)NC(=O)[C@@H](NC(=O)[C@H](CC(C)C)NC(=O)[C@H](C)NC(=O)[C@H](CC(C)C)NC(=O)[C@H](Cc1ccc(O)cc1)NC(=O)[C@H](CCC(N)=O)NC(=O)[C@H](CC(C)C)NC(=O)[C@H](CO)NC(=O)CNC(=O)[C@@H](N)C(C)C)[C@@H](C)O)C(=O)N[C@H](C(=O)N1CCC[C@H]1C(=O)N[C@@H](CCCCN)C(=O)N[C@@H](CCCCN)C(N)=O)[C@@H](C)O` [vif(142-158)], the IC50 in assay [1] was found to be 0.587 µM; in assay [2], 431 nM; in assay [3], 24500 nM; in assay [4] it was 1.15 µM; in [5], 7.94 µM; in [6] it was 1.21 µM. In addition, the IC50 in assay [7] is 11000 nM; in [8], 7.77 µM; in assay [9], 1.52 µM; in assay [10] it was 260 nM.
Turning to `CC(C)C[C@H](NC(=O)CNC(=O)[C@H](Cc1c[nH]cn1)NC(=O)[C@H](CC(C)C)NC(=O)[C@H](Cc1c[nH]c2ccccc12)NC(=O)[C@@H]1CCCN1C(=O)[C@H](CCCNC(=N)N)NC(=O)[C@@H]1CCCN1C(=O)[C@H](Cc1ccccc1)NC(=O)[C@H](Cc1c[nH]cn1)NC(=O)[C@H](CCCNC(=N)N)NC(=O)[C@@H](NC(=O)[C@H](C)NC(=O)[C@@H](N)CCC(=O)O)C(C)C)C(N)=O` [vpr(29-42)], the IC50 was 26.5 µM in assay [1]; over 30000 nM in assay [2]; over 30000 nM in assay [3] (setting [11]); 24.8 µM in assay [4]; over 30 µM in assay [5]; over 30 µM in [6]. Besides, the IC50 in [7] is over 30000 nM; in [8], over 30 µM; in [9], 1.84 µM; in [10], 4550 nM.
As to `CC[C@H](C)[C@H](NC(=O)[C@H](C)NC(=O)[C@@H](N)CCC(=O)O)C(=O)N[C@H](C(=O)N[C@@H](CCCNC(=N)N)C(=O)N[C@H](C(=O)N[C@@H](CC(C)C)C(=O)N[C@@H](CCC(N)=O)C(=O)N[C@@H](CCC(N)=O)C(=O)N[C@@H](CC(C)C)C(=O)N[C@@H](CC(C)C)C(=O)N[C@@H](Cc1ccccc1)C(=O)N[C@H](C(=O)N[C@@H](Cc1c[nH]cn1)C(=O)N[C@@H](Cc1ccccc1)C(=O)N[C@@H](CCCNC(=N)N)C(=O)N[C@H](C(=O)NCC(=O)N[C@@H](CS)C(=O)N[C@@H](CCC(N)=O)C(=O)N[C@@H](Cc1c[nH]cn1)C(=O)N[C@@H](CO)C(=O)N[C@@H](CCCNC(=N)N)C(N)=O)[C@@H](C)CC)[C@@H](C)CC)[C@@H](C)CC)[C@@H](C)CC` [vpr(58-80)], the IC50 was over 30 µM in assay [1]; 4170 nM in [2]; 14900 nM in [3]; 0.177 µM in assay [4]; 0.415 µM in [5]; 2.98 µM in [6]. Moreover, the IC50 in [7] was over 30000 nM; in assay [8], 0.388 µM; in [9], over 30 µM; in [10], 812 nM.
As to `CC[C@H](C)[C@H](N)C(=O)N[C@H](C(=O)N[C@@H](C)C(=O)N[C@@H](CC(C)C)C(=O)N[C@H](C(=O)N[C@H](C(=O)N[C@@H](C)C(=O)N[C@H](C(=O)N[C@H](C(=O)N[C@H](C(=O)N[C@@H](Cc1c[nH]c2ccccc12)C(=O)N[C@H](C(=O)N[C@H](C(=O)N[C@H](C(N)=O)C(C)C)[C@@H](C)CC)[C@@H](C)O)C(C)C)C(C)C)[C@@H](C)CC)[C@@H](C)CC)[C@@H](C)CC)C(C)C` [vpu(13-26)], the IC50 in assay [1] is over 30 µM; in assay [2], over 30000 nM; in [3] (setting [11]) it was over 30000 nM; in assay [4], over 30 µM; in assay [5] it was over 30 µM; in assay [6] it was over 30 µM. Besides, the IC50 in assay [7] was over 30000 nM; in assay [8], over 30 µM; in assay [9] it was 5.81 µM; in [10], over 30000 nM.

The values are drawn from publication PMC3445454, “Broad and Cross-Clade CD4^+ T-Cell Responses Elicited by a DNA Vaccine Encoding Highly Conserved and Promiscuous HIV-1 M-Group Consensus Peptides” (PLoS ONE, 2012).
